We go through 74 molecules from PubChem BioAssay AID504558 (Broad Institute, 2011).

Only a part is listed here, and it is no random draw. The source made the active and inactive calls. Rule as the data show it: active = inhibition above about 41%; inconclusive = no clear call, values can overlap the other calls; inactive = below that.

The nature of the test: blockers of LMP1-induced NF-kB reporter signal – cell-based, luminescence, single point, primary screen (AID 504558).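 Also: 0% = neutral control wells and 100% = reference inhibitor control.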 To be noted: LMP1-induced NF-kappaB luciferase reporter cells, at 12.5 µM, stronger effect = higher value.
Turning to `N#Cc1ccc(C(=O)NCC2(N3CCCCC3)CCCCC2)cc1`, the inhibition is inactive: -18.3%.
For the molecule `CC(C)(C)OC(=O)N1CCC(N(C(=O)c2ccccc2)c2ccc(Cl)cc2)CC1`, the inhibition is inactive: 0.016%.
Consider `CN(C)C1(CNC(=O)c2cccc(C#N)c2)CCCCC1`, for which the inhibition was inactive: 2.3%.
On to `c1ccc(CN2CCC(Nc3ccccc3)CC2)cc1`, for which the inhibition was inactive: 23.1%.
Consider `Cc1cc(N(CCCl)CCCl)ccc1C=O`, for which the inhibition is active: 71.1%.
Turning to `CCCN1CCC(Nc2cc(OC)cc(OC)c2)CC1`, the inhibition is inactive: 1.92%.
For `COc1cc(C(=O)NCC2(N3CCOCC3)CCCCC2)cc(OC)c1C` the value was inactive: 0.522%; for `O=C(NCC1(N2CCOCC2)CCCCC1)c1cc(Br)ccc1Cl`, inactive: 1.49%.
The value for `COc1ccc(C(=O)NCC2(N3CCOCC3)CCCCC2)cc1OC` was inactive: -8.77%.
Take `CCOC(=O)N1CCC(Nc2ccc(C)cc2)CC1`: the inhibition was inactive: -1.18%.
Regarding `N/C(=N\O)c1c(N)no[n+]1[O-]`, the inhibition was inactive: -1.9%.
Take `O=C(OC1CN2CCC1CC2)C1c2ccccc2C=Cc2ccccc21` (centres undefined): the inhibition is inactive: -11.7%.
As for `CCOc1ncccc1C(=O)NCC1(N2CCOCC2)CCCCC1`, the inhibition is inactive: -14.9%.
For the molecule `CN1CCC(Nc2ccc(F)c(Cl)c2)CC1`, the inhibition is inactive: 1.61%.
For `CC(C)(C)OC(=O)N1CCC(Nc2ccccc2)CC1` the value was inactive: -12.1%; for `O=C(O)C1(Nc2ccccc2)CCN(Cc2ccccc2)CC1`, inactive: 2.49%; for `CCCOc1ccc(C(=O)NCC2(N(C)C)CCCCC2)cc1`, inactive: -0.877%.
As to `COc1cc(OC)cc(C(=O)NCC2(N3CCOCC3)CCCCC2)c1`, the inhibition is inactive: -11.8%.
For the molecule `COc1cccc(C(=O)N(c2cc(C)cc(C)c2)C2CCN(C(=O)OC(C)(C)C)CC2)c1`, the inhibition was inactive: 18.4%.
On to `CCC(CO)(C(=O)OC1CN2CCC1CC2)c1ccccc1` (centres undefined), for which the inhibition was inactive: -7.98%.
As to `CN1CCC(Nc2ccc(Cl)cc2)CC1`, the inhibition was inactive: 3.33%.
On to `CC(=O)N(c1ccccc1)C1CCNCC1`, for which the inhibition is inactive: -1.52%.
For `COc1cc(OC)cc(C(=O)NCC2(N3CCCCC3)CCCCC2)c1` the value was inactive: -29.8%.
Take `Cc1ccc(C(=O)NCC2(N3CCCCC3)CCCCC2)o1`: the inhibition was inactive: -13.7%.
`Fc1ccccc1NC1CCN(Cc2ccccc2)CC1`: the inhibition was inactive: 4.23%.
Consider `Cc1ccc(NC2(C#N)CCN(Cc3ccccc3)CC2)cc1`, for which the inhibition was inactive: -2.22%.
For `Cc1ccccc1NC1(C#N)CCN(Cc2ccccc2)CC1` the value was inactive: -1.57%; for `CCN1CCC(Nc2cccc(F)c2)CC1`, inactive: 10.3%.
On to `O=C(NCC1(N2CCCCC2)CCCCC1)c1ccco1`, for which the inhibition was inactive: -1.59%.
Consider `Cn1c(=O)[nH]cc(N(CCCl)CCCl)c1=O`, for which the inhibition is inactive: 36.1%.
Regarding `CN(C)c1ccc(C(=O)NCC2(N3CCCCC3)CCCCC2)cc1`, the inhibition is inactive: -30.1%.
For `O=C1CCN(Cc2ccccc2)CC1` the value was inactive: -13.2%.
`CCOc1ccc(C)cc1CN(CCCl)CCCl`: the inhibition was inactive: 2.79%.
The value for `O=C(NCC1(N2CCCCC2)CCCCC1)c1ccc(F)cc1` was inactive: 1.61%; that for `O=P1(N(CCCl)CCCl)SCCCS1` was inactive: -5.31%.
The value for `CCCCOc1ccc(C(=O)NCC2(N3CCOCC3)CCCCC2)cc1` was inactive: -13%.
Regarding `COc1ccc(NC2CCN(CCc3ccccc3)CC2)c(OC)c1`, the inhibition was inactive: -4.21%.
With `CCOC(=O)N1CCC(Nc2ccc(F)cc2)CC1`, the inhibition was inactive: 5.68%.
`CCOC(=O)N1CCC(Nc2cccc(C)c2)CC1`: the inhibition was inactive: -7.84%.
For the molecule `COc1ccc(C(=O)NCC2(N3CCCCC3)CCCCC2)cc1`, the inhibition is inactive: -38.2%.
In the case of `CC(C)(C)OC(=O)N1CCC(N(C(=O)c2ccccc2)c2ccc(F)cc2)CC1`, the inhibition is inactive: 8.73%.
Turning to `COc1ccc(C(=O)NCC2(N3CCCCC3)CCCCC2)c(OC)c1OC`, the inhibition is inactive: -0.905%.
For `O=C(NCC1(N2CCCCC2)CCCCC1)c1ccc(=O)[nH]c1` the value was inactive: -40.2%; for `O=C(NCC1(N2CCCCC2)CCCCC1)c1cccs1`, inactive: -1.79%.
For `CSc1ccccc1C(=O)NCC1(N2CCCCC2)CCCCC1` the value was inactive: -3.16%; for `Cc1cccc(NC2(C#N)CCN(Cc3ccccc3)CC2)c1`, inactive: 9.45%.
Consider `O=C(NCC1(N2CCCCC2)CCCCC1)c1ccc(Cl)nc1`, for which the inhibition is inactive: -40%.
With `Cc1cc(C)cc(N(C(=O)c2ccccc2)C2CCN(C(=O)OC(C)(C)C)CC2)c1`, the inhibition was inactive: 5.19%.
Regarding `O=C(NCC1(N2CCOCC2)CCCCC1)c1cc2ccccc2o1`, the inhibition was inactive: -5.67%.
Consider `O=C(OC1CN2CCC1CC2)C1c2ccccc2Oc2ccccc21` (centres undefined), for which the inhibition was inactive: 19.9%.
The value for `O=C(NCC1(N2CCCCC2)CCCCC1)c1ccc(Cl)s1` was inactive: -25.7%; that for `N#CC1(Nc2ccccc2)CCN(Cc2ccccc2)CC1` was inactive: -1.82%.
The value for `COc1ccc(Cl)cc1C(=O)NCC1(N2CCOCC2)CCCCC1` was inactive: -3.28%; that for `CCOC(=O)N1CCC(Nc2ccc(OC)cc2)CC1` was inactive: -6.1%.
The value for `CC(C)c1ccc(NC2CCN(C(=O)OC(C)(C)C)CC2)cc1` was inactive: -2.73%; that for `COc1ccc(CN(CCCl)CCCl)cc1Cl` was inactive: -7.19%.
Take `CN(C)c1cccc(C(=O)NCC2(N3CCCCC3)CCCCC2)c1`: the inhibition is inactive: -10.5%.
Consider `COc1cc(OC)c(C(=O)NCC2(N(C)C)CCCCC2)cc1OC`, for which the inhibition was inactive: -0.889%.
Regarding `O=C(NCC1(N2CCOCC2)CCCCC1)c1cc(F)c(F)cc1Cl`, the inhibition was inactive: 0.26%.
As for `O=C(NCC1(N2CCCCC2)CCCCC1)c1cncc(Br)c1`, the inhibition is inactive: -42.2%.
With `CN1CCC(Nc2cccc(F)c2)CC1`, the inhibition is inactive: -3.04%.
As for `Cc1ccc(C(=O)NCC2(N(C)C)CCCCC2)o1`, the inhibition was inactive: 3.51%.
For `CCCOc1ccc(C(=O)NCC2(N(C)C)CCCCC2)cc1OC`, the inhibition is inactive: -13.8%.
Regarding `O=C(NCC1(N2CCCCC2)CCCCC1)c1ccc(OC(F)F)cc1`, the inhibition was inactive: -26.3%.
Consider `CCN1CCC(Nc2ccc(Cl)cc2)CC1`, for which the inhibition is inactive: 7.48%.
Take `N#CC1(Nc2ccccc2)CCN(CCc2ccccc2)CC1`: the inhibition is inactive: -7.76%.
Consider `O=C(NCC1(N2CCCCC2)CCCCC1)c1cccc([N+](=O)[O-])c1`, for which the inhibition was inactive: -44.3%.
As to `CSc1ccc(C(=O)NCC2(N3CCOCC3)CCCCC2)cc1`, the inhibition is inactive: -19.1%.
The value for `O=C(NCC1(N2CCCCC2)CCCCC1)c1cccc(C(F)(F)F)c1` was inactive: -32.7%; that for `COc1cc(C(=O)NCC2(N3CCCCC3)CCCCC2)ccc1OC(F)F` was inactive: -57.3%.
Consider `O=C(NCC1(N2CCOCC2)CCCCC1)c1cc(=O)[nH]c2ccccc12`, for which the inhibition is inactive: 4.48%.
For the molecule `CN1CCN(CCOC(=O)C(O)(c2ccccc2)c2ccccc2)CC1`, the inhibition was inactive: 2.03%.
Regarding `CC(C)c1ccc(C(=O)NCC2(N3CCOCC3)CCCCC2)cc1`, the inhibition was inactive: -3.27%.
Consider `COc1ccc(NC2CCN(C(=O)OC(C)(C)C)CC2)cc1`, for which the inhibition was inactive: -6.05%.
